Data taken from PMC4331664, “Allosteric regulation of the partitioning of glucose-1-phosphate between glycogen and trehalose biosynthesis in Mycobacterium tuberculosis” (Biochimica et Biophysica Acta. General Subjects, 2015).

Columns and labels:
Assay in all cases: purified protein
Settings in all cases: pH 8.0; 37.0 °C
[1] = tested on: Nc1ncnc2c1ncn2[C@@H]1O[C@H](COP(=O)(O)OP(=O)(O)O[C@H]2O[C@H](CO)[C@@H](O)[C@H](O)[C@H]2O)[C@@H](O)[C@H]1O
[2] = tested on: O=P(O)(O)O[C@H]1O[C@H](CO)[C@@H](O)[C@H](O)[C@H]1O
[3] = tested on: Nc1ncnc2c1ncn2[C@@H]1O[C@H](COP(=O)(O)OP(=O)(O)OP(=O)(O)O)[C@@H](O)[C@H]1O
O=P(O)(O)OP(=O)(O)O = tested on: O=P(O)(O)OP(=O)(O)O

Tre-6P Sase (trehalose-6-phosphate synthase) (Mycobacterium tuberculosis H37Rv)
K0.5 [1]: 0.14 ± 0.01 mM
Vmax [1]: 1.37 µmol/min/mg

ADP-Glc PPase (ADP-glucose pyrophosphorylase) (Mycobacterium tuberculosis H37Rv)
K0.5 [1]: 0.76 ± 0.09 mM
Vmax [1]: 1.41 µmol/min/mg
K0.5 [2]: 1.07 ± 0.09 mM
Vmax [2]: 3.32 µmol/min/mg
K0.5 [3]: 1.20 ± 0.08 mM
Vmax [3]: 3.32 µmol/min/mg
Vmax (O=P(O)(O)OP(=O)(O)O): 1.41 µmol/min/mg
